In patent US20260286410A1, “LIPOPOLYSACCHARIDE, LIPOPOLYSACCHARIDE PRODUCTION METHOD, AND LIPOPOLYSACCHARIDE COMPOSITION” (published 2026):
“And” between values parts separate entries of the source, which are not always exact repeats. Equal values may be shown once.

Test system: Pantoea agglomerans (strain IG1)
Test: Mutagen treatment of Pantoea agglomerans with MNNG, colony count
Conditions: MNNG 100 μg/mL, 37° C.

CN(N=O)C(=N)N[N+](=O)[O-]
Death rate (treatment duration 0.5 hr): 94.16%
Death rate (treatment duration 1 hr): 95.62%
Death rate (treatment duration 1.5 hr): 96.84%
Death rate (treatment duration 2 hr): 97.99%
Death rate (treatment duration 3 hr): 99.9% and 99.89%
Death rate (treatment duration 4 hr): 99.9% and 99.93%
